Test system: E.coli DSM1116
Conditions: eight times MIC

COc1c(NC(=O)c2ccc(NC(=O)c3ccc(NC(=O)[C@H](Cc4c[nH]nn4)NC(=O)c4ccc(NC(=O)/C(C)=C/c5ccc(O)cc5)cc4)cc3)c(OC)c2O)ccc(C(=O)O)c1O [Compound 2, AzaHis-albicidin]
formation of resistance (FoR): 10^−11
